Results published in US20060093617A1.

Target: HLA-A1101 (human)
Assay: competition vs 125I probe peptide, purified HLA-A*1101
Conditions: remark: other sources report otherwise

B1: … (peptide)
peptide: RVLEDGVNY
modifications: not checked
Ki: 0.893 µM
